Laboratory results published in patent US20040266723A1, “Antiviral agents for treatment of Flaviviridae infections” (priority 2000, published 2004).

What follows are molecules tested on BVDV (assay: BVDV real time RT-PCR antiviral assay in MDBK cells). Conditions: MDBK CC50 24 hrs / antiviral EC90 24 hrs.
Assay type: cell-based, Bovine viral diarrhea virus (BVDV), strain NADL
Protocol: As one illustration of this method, in the case of BVDV in MDBK cells, in a first step, viral RNA is isolated from 140 μL of the cell culture supernatant by means of a commercially available column (Viral RNA extraction kit, QiaGen, CA). The viral RNA is then eluted from the column to yield a total volume of 60 μL, and subsequently amplified with a quantitative RT-PCR protocol using a suitable primer for the BVDV NADL strain. A quenched fluorescent probe molecule is hybridized to the BVDV DNA, which then undergoes exonucleolytic degradation resulting in a detectable fluorescent signal. Therefore, the RT-PCR amplified DNA was detected in real time by monitoring the presence of fluorescence signals. The TaqMan probe molecule (5′ 6-fam-[…]-tamara 3′ [Sequence ID No. 7] and primers (sense: 5′-[…]-3′ [Sequence ID No. 8]; and antisense: 5′-[…]-3′ [Sequence ID No. 9]) were designed with the aid of the Primer Express software (PE-Applied Biosystems) to be complementary to the BVDV NADL NS5B region. A total of 10 μL of RNA was analyzed in a 50 μL RT-PCR mixture. Reagents and conditions used in quantitative PCR were purchased from PE-Applied Biosystems. The standard curve that was created using the undiluted inoculum virus ranged from 6000 plaque forming units (PFU) to 0.6 PFU per RT-PCR mixture.
Maldin-Darby bovine kidney (MDBK) cells were grown and maintained in a modified eagle medium (DMEM/F12; GibcoBRL), supplemented with 10% heat inactivated horse serum at 37° C. in a humidified, 5% CO2, incubator.
Bovine viral diarrhea virus (BVDV), strain NADL, causes a cytopathogenic effect (CPE) after infection of these cells.
Cells that were not treated with a test compound were considered a negative control, while ribavirin served as a positive control. Viral RNA was extracted and analyzed by real time RT-PCR.
Controls were Ribavirin and the polyoxymetalate HPA-023 in these experiments.

Row | Compound | Selectivity Index (24 hrs/24 hrs) CC50/EC90
1 | COc1c(C)c2c(c(O)c1CCO)C(=O)OC2 [C2-MPAlcohol, 6-(2-hydroxyethyl)-7-hydroxy-5-methoxy-4-methylphthalan-1-one] | 4
2 | COc1c(C)c2c(c(O)c1CC=O)C(=O)OC2 [C2-MPAld] | 1
3 | COc1c(C)c2c(c(O)c1C/C=C(\C)C=O)C(=O)OC2 [C4-MPAld] | 1
4 | COc1c(C)c2c(c(O)c1C/C=C(\C)CCCOP(=O)(O)CP(=O)(O)OC[C@H]1O[C@@H](n3cnc4c(N)ncnc43)[C@H](O)[C@@H]1O)C(=O)OC2 [C6-MAD] | 1
5 | NC(=O)c1cccc([C@@H]2O[C@H](COP(=O)(O)CP(=O)(O)OCC3OC(n4cnc5c(N)ncnc54)C(F)C3O)[C@@H](O)[C@H]2O)c1 (stereo partly shown) [F-ara-CH2-BAD] | 1
6 | NC(=O)c1ncn([C@H]2O[C@@H](CO)[C@H](O)[C@@H]2O)n1 [L-Ribavirin] | 1
7 | COC(=O)CC/C(C)=C/Cc1c(O)c2c(c(C)c1OC)COC2=O [MPA-O-Me] | >100
